Only a part is listed here, and it is no random draw. Results filed as inconclusive are left out. Calls of active or inactive are those of the source. Calls come from the whole dose curve; as a rule, active = well fitted inhibition curve with a large enough effect; inconclusive = small, poorly fitted or top-dose-only effect; inactive = flat fitted curve, though single readings scatter.
Biological target: Beta-lactamase (Escherichia coli (strain K12)) (UniProt P00811)
Assay: qHTS Inhibitors of AmpC Beta-Lactamase (assay with detergent);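 note: 0% = no-compound wells and -100% = no-enzyme wells; nearly all actives have a fitted effect of over 25% in size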
Conditions: AmpC hydrolysis of nitrocefin, absorbance 480 nm, 0.01% Triton; at 114 µM (top of the series)

Protein sequences, listed by entry. Tags and fused reporters are not part of them. Lines headed by an entry give the natural chain unless they say otherwise; changes in a name come on top.
UniProt P00811: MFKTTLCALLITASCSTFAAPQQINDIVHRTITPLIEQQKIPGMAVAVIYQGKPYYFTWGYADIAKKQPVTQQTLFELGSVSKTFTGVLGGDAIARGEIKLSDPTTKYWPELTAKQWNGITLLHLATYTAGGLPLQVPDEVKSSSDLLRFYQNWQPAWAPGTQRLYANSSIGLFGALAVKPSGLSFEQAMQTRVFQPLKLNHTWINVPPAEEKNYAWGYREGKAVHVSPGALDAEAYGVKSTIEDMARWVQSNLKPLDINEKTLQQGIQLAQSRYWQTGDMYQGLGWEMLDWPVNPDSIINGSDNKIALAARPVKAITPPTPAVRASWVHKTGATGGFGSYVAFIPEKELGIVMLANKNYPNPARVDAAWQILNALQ

Structure (SMILES) | activity change, negative = inhibition
O=C(/C=C/c1ccccc1)OC1CN2CCC1CC2 (stereo not given) | inactive: 4.89%
CN(C)C1(CNC(=O)c2ccc(S(C)(=O)=O)cc2)CCCCC1 | inactive: 2.01%
Cc1nn(-c2ccccc2)c2c1P(=O)(N1CCOCC1)N(C)C(c1ccccc1)=N2 (stereo not given) | inactive: 0%
CC1CCC(C(C)C)C(OP(=O)(Nc2ccccn2)c2ccccc2)C1 (stereo not given) | inactive: 5.51%
Cc1ccc(C(=O)OC2CN3CCC2CC3)cc1 (stereo not given) | inactive: -3.4%
O=[As](O)(c1cccs1)c1cccs1 | inactive: -2.99%
Cc1ccc(OCC(=O)OC2CN3CCC2CC3)cc1 (stereo not given) | inactive: 0.408%
O=P1(Nc2ccc(Br)cn2)COc2ccccc2OC1 | inactive: 15.3%
NS(=O)(=O)c1cccc(NC(=O)COC(=O)C(O)(c2ccccc2)c2ccccc2)c1 | inactive: 1.57%
Nc1cccc([As](=O)(O)c2ccccc2)c1 | inactive: -17.1%
O=P1(Nc2ncccn2)COc2ccccc2OC1 | inactive: -2.41%
Clc1n[nH]nc1-c1nn[nH][15n]1 | inactive: 3.73%
CC(C)(C)C(=O)NC(Sc1ncccn1)C(Cl)(Cl)Cl (stereo not given) | inactive: -0.4%
CCOP(=O)(Nc1ccc(C)cn1)OCC | inactive: 2.55%
O=P1(Nc2ccccn2)COc2ccccc2OC1 | inactive: 4.49%
CCC1=CC2Cc3nc4ccc(Cl)cc4c(N)c3C(C1)C2 (stereo not given) | inactive: -18.3%
CCOP(=O)(NC(=NC(C)c1ccccc1)NC(C)c1ccccc1)OCC (stereo not given) | inactive: -4.67%
O=[As](O)(c1ccccc1Br)c1ccccc1Br | inactive: -12.7%
COc1ccccc1CNC(=O)COC(=O)C(O)(c1ccccc1)c1ccccc1 | inactive: 0%
Cc1cccc(OCC(=O)OC2CN3CCC2CC3)c1 (stereo not given) | inactive: -7.38%
O=[As](O)(c1cccc(O)c1)c1cccc(O)c1 | inactive: 5.95%
O=[As](O)(O)c1cccnc1 | inactive: -6.56%

Structure (SMILES) | activity change, negative = inhibition
COc1cc(C(=O)NCC2(N3CCOCC3)CCCCC2)cc(Cl)c1OC(C)C | inactive: -0.478%
CS(=O)(=O)c1ccc(Cl)c(NC(=O)COC(=O)C(O)(c2ccccc2)c2ccccc2)c1 | inactive: 8%
O=C(OC1CN2CCC1CC2)c1ccc(Cl)cc1 (stereo not given) | inactive: 2.2%
COc1cc(C2NCCC3(OCCO3)C2(C)C)cc(OC)c1OC (stereo not given) | inactive: 1.7%
CCOP(=O)(Nc1cccc2ccccc12)OCC | inactive: -11%
CCCOP(=S)(Nc1nc(N)cc(=O)[nH]1)OCCC | inactive: -8.31%
Nc1cccc2c([As](=O)(O)O)cccc12 | inactive: 8.79%
Cc1ccc(NCCc2c([N+](=O)[O-])cc([N+](=O)[O-])cc2[N+](=O)[O-])cc1 | inactive: -11.2%
Nc1ccccc1[As](=O)(O)c1ccccc1 | inactive: -10.4%
O=C(O)COc1ccc([As](=O)(O)O)cc1[N+](=O)[O-] | inactive: 4.1%
CS(=O)(=O)c1cc([N+](=O)[O-])c2no[n+]([O-])c2c1 | inactive: -9.62%
CCOP1(=S)c2c(C)nn(CCC#N)c2N=C(c2ccccc2F)N1C (stereo not given) | inactive: 1.83%
O=P(Nc1nccs1)(Oc1ccccc1)Oc1ccccc1 | inactive: 1.22%
O=P(Nc1nccs1)(c1ccccc1)c1nc2ccccc2s1 (stereo not given) | inactive: -14.7%
O=[N+]([O-])c1ccc2c(c1)nnn2O | inactive: -4.19%
N#CCCN(C(=O)COC(=O)C(O)(c1ccccc1)c1ccccc1)c1ccc(F)cc1 | inactive: 0%
CCOP1(=S)c2c(C)nn(CCC#N)c2N=C(c2ccc(F)cc2)N1C (stereo not given) | inactive: -3.76%
CN(C(=O)Cc1ccccc1)[C@@H]1CC[C@]2(CCCO2)C[C@H]1N1CCCC1 | inactive: -2.08%
NC(=O)Nc1ccc([As](=O)(O)O)cc1 | inactive: 0.3%
Cc1ccc2nc3c(c(C)c2c1)CC(C(Cl)Cl)S3 (stereo not given) | inactive: -12.6%
Cc1ccc(OP(=O)(Nc2ccc([N+](=O)[O-])cn2)Oc2ccc(C)cc2)cc1 | inactive: -9.45%
C[As](=O)(O)c1cccc(C(=O)O)c1 | inactive: -11%

Structure (SMILES) | activity change, negative = inhibition
O=[As](O)(c1ccc(O)cc1)c1ccccc1O | inactive: 0.0575%
COc1cc(C(=O)NCC2(N3CCOCC3)CCCCC2)ccc1OCC(C)C | inactive: -0.871%
CC(C)NC(=O)NP(=O)(Oc1ccccc1)Oc1ccccc1 | inactive: -2.1%
CCN(CC)C(=S)SC(NC=O)C(Cl)(Cl)Cl (stereo not given) | inactive: 0.399%
O=[N+]([O-])c1cc([N+](=O)[O-])c(-c2ccn[nH]2)s1 | inactive: 1.31%
CC(C)c1ccc(OP(=O)(Nc2ccccn2)Oc2ccccc2F)cc1 (stereo not given) | inactive: 2.31%
ClCCSc1nnc(-c2cccnc2)o1 | inactive: 2.97%
COc1ccc2nc(NP(=O)(c3ccccc3)c3ccccc3)sc2c1 | inactive: -16.6%
COc1cc(I)ccc1[As](=O)(O)O | inactive: -2.64%
O=C(OC1CN2CCC1CC2)C12CC3CC(CC(C3)C1)C2 (stereo not given) | inactive: -13.3%
Cc1cc(=O)[nH]c(N[N+](=O)[O-])n1 | inactive: -11.4%
Cc1c2c(nc3ccccc13)SC(C(Cl)Cl)C2 (stereo not given) | inactive: -4.4%
COc1ccc(N/C(=N/P(=O)(N2CCOCC2)N2CCOCC2)N2CCOCC2)cc1 | inactive: 0.511%
O=C(COc1ccccc1)OC1CN2CCC1CC2 (stereo not given) | inactive: -3.58%
O=C(Nc1ccncc1[N+](=O)[O-])c1ccc([N+](=O)[O-])cc1[N+](=O)[O-] | inactive: -9.9%
COP1(=S)c2c(C)nn(CCC#N)c2N=C(c2ccc(F)cc2)N1C (stereo not given) | inactive: -5.06%
CCC(C)N(CC(C)C)C(=S)SC(NC(C)=O)C(Cl)(Cl)Cl (stereo not given) | inactive: -7.34%
CCOC(=O)c1ccc(NC(=O)C(C)(CCl)SC)cc1 (stereo not given) | inactive: -1.98%
O=C(OC1CN2CCC1CC2)c1cccc([N+](=O)[O-])c1 (stereo not given) | inactive: -0.664%
CCCCOc1ccc(C(=O)NCC2(N3CCCCC3)CCCCC2)cc1OC | inactive: -2.33%
Cc1cc(SC(NC(=O)c2ccccc2)C(Cl)(Cl)Cl)nc(C(C)C)n1 (stereo not given) | inactive: -4.53%
